Reference: ChEMBL document CHEMBL1148371, “Sulfonyl-containing aldophosphamide analogues as novel anticancer prodrugs targeted against cyclophosphamide-resistant tumor cell lines” (J Med Chem, 2004)

System: V79
Assay: In vitro cytotoxicity against V-79 chinese hamster lung fibroblasts (3 hr drug exposure time) by clonogenic assay

Row | SMILES | IC50 [µM]
1 | CS(=O)(=O)CCOP(N)(=O)N(CCCl)CCCl (stereo not drawn) | 56.5
2 | CSCC(C)OP(N)(=O)N(CCCl)CCCl (stereo not drawn) | 69.1
3 | O=P(O)(N(CCCl)CCCl)N(CCCl)CCCl | 42.6
4 | CC(CS(C)(=O)=O)OP(N)(=O)N(CCCl)CCCl (stereo not drawn) | 69.1
5 | O=P1(N(CCCl)CCCl)NC(O)CCO1 (stereo not drawn) | 3.3
6 | NP(=O)(O)N(CCCl)CCCl | 77
7 | CSCCOP(N)(=O)N(CCCl)CCCl (stereo not drawn) | 69.1

System: not listed separately
Assay: Half life period in phosphate buffer (0.1 M)

Row | SMILES | T1/2 [min]
8 | NP(=O)(O)N(CCCl)CCCl | 18
